A mixed list of measured activities; the numbers were collected in NIAID ChemDB.

All rows: tests in culture; species: Cowpox virus; endpoint: EC50

Rows are shuffled and stem from different studies.

| SMILES | strain | cells | value |
|---|---|---|---|
| CC(C)(C)NC(=O)[C@@H]1C[C@@H]2CCCC[C@@H]2CN1C[C@@H](O)[C@H](Cc1ccccc1)NC(=O)[C@H](CC(N)=O)NC(=O)c1ccc2ccccc2n1 |  | HFF | >300 µM |
| Nc1nc2c(ncn2COCCO)c(=O)[nH]1 |  | HFF | >444 µM |
| Nc1nccc2c1ncn2[C@@H]1C[C@H](CO)[C@@H](O)[C@H]1O | Brighton strain wild type | VERO 76 | >1000 µM |
| CC1OP(=O)(OC[C@H]2O[C@@H](n3cc(/C=C/Br)c(=O)[nH]c3=O)C[C@@H]2O)Oc2cccc(Cl)c21 |  | VERO 76 | >99 µg/mL |
| CCCCCCCCCCCCCCCCCCOCCOP(=O)(O)CO[C@H](CO)Cn1ccc(N)nc1=O | Brighton | HFF | 0.3 µM |
| CCCCOC(=O)[C@H](C)NP1(=O)CO[C@@H](Cn2ccc(N)nc2=O)CO1 | Brighton | HFF | 8.4 µM |
| Cc1cn([C@H]2C=C[C@@H](CO)O2)c(=O)[nH]c1=O |  | VERO | >446 µM |
| O=C1Nc2ccc(Cl)cc2[C@@](C#CC2CC2)(C(F)(F)F)O1 |  | HFF | >300 µM |
| Nc1ccn(C[C@H]2COP(=O)(O)CO2)c(=O)n1 |  | VERO | 132 µM |
| O=c1cnn([C@@H]2O[C@H](CO)[C@@H](O)[C@H]2O)c(=O)[nH]1 |  | 3T3 | 19 µM |
| Cc1c(O)cccc1C(=O)N[C@@H](CSc1ccccc1)[C@H](O)CN1C[C@H]2CCCC[C@H]2C[C@H]1C(=O)NC(C)(C)C |  | HFF | >300 µM |
| Nc1ccn(C[C@H]2COP(=O)(O)CO2)c(=O)n1 | Brighton strain wild type | VERO 76 | 57 µM |
| Nc1ccn(C[C@@H](CO)OCP(=O)(O)O)c(=O)n1 |  | BSC | 31 µM |
| Cc1cn([C@H]2C[C@H](N=[N+]=[N-])[C@@H](CO)O2)c(=O)[nH]c1=O |  | VERO | >374 µM |
| CCOC(=O)CC1OP(=O)(OC[C@H]2O[C@@H](n3cc(/C=C/Br)c(=O)[nH]c3=O)C[C@@H]2O)Oc2cccc(Cl)c21 |  | VERO 76 | >99 µg/mL |
| COc1c(C)c2c(c(O)c1C/C=C(\C)CCC(=O)O)C(=O)OC2 | Brighton strain wild type | VERO 76 | 3.2 µM |
| CCCCCCCCCCCCCCCCCCOCCOP1(=O)CO[C@@H](Cn2ccc(N)nc2=O)CO1 | Brighton | HFF | 0.5 µM |
| COc1c(C)c2c(c(O)c1C/C=C(\C)CCC(=O)O)C(=O)OC2 |  | 3T3 | 1.3 µM |

ECn: concentration that inhibits the pathogen or its effect by n%. Blank or dashed fields: not listed here.